{"source": "PubChem BioAssay AID624099 (ICCB-Longwood, 2012)", "purpose": "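Knock-downs relieving repression by E2 of an HPV18 LCR luciferase reporter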 (primary screen)", "cell system": "human C33A cervical carcinoma cells (HPV-negative) stably expressing BPV1 E2 and an HPV18 LCR luciferase reporter", "reagents": "siRNA pool against human genes, 40 nM", "time to read-out": "72 h", "measured": "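HPV18 LCR reporter light per well, converted to plate-wise z-scores that exclude control wells, and averaged over triplicate plates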", "scale": "mean z-score and z-score: higher = stronger reporter signal, weaker E2 silencing", "hit rule": "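Hit if mean z-score reaches 2 and two or more of three replicate z-scores also reach 2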", "note": "The whole screen tested about 21,000 reagents; shown is a part drawn at random. Over the whole deposit, 497 (2.4%) got an active call. 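Higher z means weaker E2 silencing; only reporter increases were scored, and knock-downs that hurt cell survival may mask genuine repressor factors.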"}
{"gene": "OPLAH (5-oxoprolinase, ATP-hydrolysing)", "mean z-score": 0.68, "z-score, replicate A": 0.33, "z-score, replicate B": 0.75, "z-score, replicate C": 0.95, "activity call": "inactive"}
{"gene": "LOC389650 (retired record)", "mean z-score": -1.28, "z-score, replicate A": -1.7, "z-score, replicate B": -0.48, "z-score, replicate C": -1.64, "activity call": "inactive"}
{"gene": "TSPO (translocator protein)", "mean z-score": -0.18, "z-score, replicate A": -0.42, "z-score, replicate B": -0.04, "z-score, replicate C": -0.08, "activity call": "inactive"}
{"gene": "KIF13A (kinesin family member 13A)", "mean z-score": 1.13, "z-score, replicate A": 1.3, "z-score, replicate B": 1.26, "z-score, replicate C": 0.83, "activity call": "inactive"}
{"gene": "LZTFL1 (leucine zipper transcription factor like 1)", "mean z-score": -0.56, "z-score, replicate A": -0.46, "z-score, replicate B": -0.67, "z-score, replicate C": -0.54, "activity call": "inactive"}
{"gene": "LOC388686 (retired record)", "mean z-score": -0.17, "z-score, replicate A": -0.11, "z-score, replicate B": -0.25, "z-score, replicate C": -0.16, "activity call": "inactive"}
{"gene": "GRB2 (growth factor receptor bound protein 2)", "mean z-score": 0.11, "z-score, replicate A": 0.25, "z-score, replicate B": 0.07, "z-score, replicate C": 0.02, "activity call": "inactive"}
{"gene": "GRAMD1B (GRAM domain containing 1B)", "mean z-score": -0.27, "z-score, replicate A": -0.29, "z-score, replicate B": -0.04, "z-score, replicate C": -0.47, "activity call": "inactive"}
{"gene": "ZNF821 (zinc finger protein 821)", "mean z-score": 1.27, "z-score, replicate A": 1.6, "z-score, replicate B": 1.26, "z-score, replicate C": 0.95, "activity call": "inactive"}
{"gene": "PELP1 (proline, glutamate and leucine rich protein 1)", "mean z-score": 0.68, "z-score, replicate A": 0.75, "z-score, replicate B": 0.81, "z-score, replicate C": 0.47, "activity call": "inactive"}
{"gene": "RAB40A (RAB40A, member RAS oncogene family)", "mean z-score": -0.57, "z-score, replicate A": -0.65, "z-score, replicate B": -0.33, "z-score, replicate C": -0.73, "activity call": "inactive"}
{"gene": "SCD5 (stearoyl-CoA desaturase 5)", "mean z-score": 1.71, "z-score, replicate A": 1.53, "z-score, replicate B": 1.46, "z-score, replicate C": 2.15, "activity call": "inactive"}
{"gene": "IFT27 (intraflagellar transport 27)", "mean z-score": 0.59, "z-score, replicate A": 0.7, "z-score, replicate B": 0.68, "z-score, replicate C": 0.38, "activity call": "inactive"}

2 entries from above, arranged by “z-score, replicate A”, high to low:
{"gene": "GRB2 (growth factor receptor bound protein 2)", "mean z-score": 0.11, "z-score, replicate A": 0.25, "z-score, replicate B": 0.07, "z-score, replicate C": 0.02, "activity call": "inactive"}
{"gene": "LOC388686 (retired record)", "mean z-score": -0.17, "z-score, replicate A": -0.11, "z-score, replicate B": -0.25, "z-score, replicate C": -0.16, "activity call": "inactive"}

The list goes on.
{"gene": "BCL6 (BCL6 transcription repressor)", "mean z-score": 0.2, "z-score, replicate A": 0.39, "z-score, replicate B": 0, "z-score, replicate C": 0.21, "activity call": "inactive"}
{"gene": "BRSK1 (BR serine/threonine kinase 1)", "mean z-score": 1.75, "z-score, replicate A": 1.83, "z-score, replicate B": 1.44, "z-score, replicate C": 1.97, "activity call": "inactive"}
{"gene": "NSMCE1 (NSE1 component of SMC5/6 complex)", "mean z-score": -0.81, "z-score, replicate A": -0.98, "z-score, replicate B": -0.92, "z-score, replicate C": -0.52, "activity call": "inactive"}
{"gene": "RNF133 (ring finger protein 133)", "mean z-score": -0.6, "z-score, replicate A": -0.18, "z-score, replicate B": -0.85, "z-score, replicate C": -0.77, "activity call": "inactive"}
{"gene": "PLEKHS1 (pleckstrin homology domain containing S1)", "mean z-score": -1.37, "z-score, replicate A": -1.42, "z-score, replicate B": -1.22, "z-score, replicate C": -1.48, "activity call": "inactive"}
{"gene": "YRDC (yrdC N6-threonylcarbamoyltransferase domain containing)", "mean z-score": -0.71, "z-score, replicate A": -0.88, "z-score, replicate B": -0.78, "z-score, replicate C": -0.47, "activity call": "inactive"}
{"gene": "MTMR4 (myotubularin related protein 4)", "mean z-score": -0.91, "z-score, replicate A": -0.88, "z-score, replicate B": -0.87, "z-score, replicate C": -0.99, "activity call": "inactive"}
{"gene": "PEDS1 (plasmanylethanolamine desaturase 1)", "mean z-score": 0.54, "z-score, replicate A": 0.23, "z-score, replicate B": 0.45, "z-score, replicate C": 0.95, "activity call": "inactive"}
